Laboratory results from patent publication US20080050354A1, “PROTECTING BIOACTIVE FOOD INGREDIENTS USING MICROORGANISMS HAVING REDUCED METABOLIZING CAPACITY” (COMPAGNIE GERVAIS DANONE, priority 2004, published 2008).

Chains of the proteins cited; added tags and fusions are not shown. Lines headed by an entry give the natural chain unless they say otherwise; changes in a name come on top.
UniProt P02662: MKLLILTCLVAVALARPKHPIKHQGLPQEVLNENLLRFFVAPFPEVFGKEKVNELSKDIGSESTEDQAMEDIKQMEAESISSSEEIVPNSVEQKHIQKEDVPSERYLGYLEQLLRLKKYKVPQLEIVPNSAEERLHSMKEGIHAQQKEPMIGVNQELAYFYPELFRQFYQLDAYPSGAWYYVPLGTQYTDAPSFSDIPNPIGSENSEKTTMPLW

How the values were obtained:
[1] = test system: I-1630; assay: Fermentation of reconstituted milk + Lactium by pure strain; parameters: species or system S. thermophilus
[2] = test system: lactic ferment Hansen YC380; assay: Fermentation of dairy mix containing peptide ingredient, residual peptides by LC-MS/MS; settings: Lactium 1.5 g/L added before fermentation; fermentation to pH 4.70

With “peptide αS1 [91-100]: fragment 91-100 of casein αS1; peptide with relaxing properties contained in the milk protein hydrolyzate Lactium® (Ingredia) (YLGYLEQLLR; UniProt P02662 106-115, looked up, fragment)” the “% of peptide αS1 [91-100] remaining after fermentation” value ([1]; dairy mix with 1.5 g/L Lactium, strain I-1630, stop at pH 4.7) was 0.3%, the “consumption of peptide by the strain” value ([1]; parent strain I-1630) was “consumes the peptide” and the “bioactive peptide consumed after fermentation” value [2] was “more than 95%”.
